The values that follow are results of earlier work, collected in paper PMC3904841, “Crystal Structures of HIV-1 gp120 Envelope Glycoprotein in Complex with NBD Analogues That Target the CD4-Binding Site” (PLoS ONE, 2014).

In one data set the target is gp120. The conditions noted are these: binding affinity for gp120; ref [24,27]; cited from earlier work.
A further data set relates to HIV-1 YU2 virus. The conditions noted are these: Cf2Th-CD4/CCR5 cells infected with HIV-1 YU2 virus; ref [24,27]; cited from earlier work.

Turning to `O=C(NCC1CCN(C2CC2)C1)C(=O)Nc1ccc(Cl)c(F)c1` (centres unmarked) [MAE-II-188], on gp120, the Kd is 1.7 µM. Moreover, in the data set with HIV-1 YU2 virus, the IC50 was 33.5 µM.
